Laboratory results: PubChem BioAssay AID1224833 (University of Georgia, 2016)
Here is an unselected part of about 12,000 reagents tested. About 5,600 of all reagents (46%) count as active. 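Active calls cover z-scores past 1 in both directions, so they include lowered as well as raised rotavirus replication.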 Entries without a mark were called inactive.

- Test: 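Human genes whose knock-down alters rotavirus replication in monkey cells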 (primary screen)
- System: monkey MA104 kidney cells
- Reagent: siRNA pool against human genes, 50 nM
- Time to read-out: 48 h knock-down before infection; read 24 h after infection
- Challenge: infection with rotavirus strain RV3 two days after transfection; infectious dose for this stage not given
- Read-out: 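z-score of rotavirus antigen signal per well, from a fluorescent immunoassay, relative to non-targeting control wells on the same plate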
- Direction: z-score vs non-targeting control: higher = more rotavirus replication than with non-targeting control
- Active means: In these data the active calls have z-score vs non-targeting control at about -1 or lower, or at about 1 or higher
- Meaning of the calls: active = z-score beyond 1 either way; inactive = z-score within 1 of zero

z-score vs non-targeting control	gene knocked down
1.03 (active)	MBP
-0.343	SNX12
-2.14 (active)	OR5H1
-2.01 (active)	PTS
-1.06 (active)	MALL
0.732	PUM3
1.41 (active)	UTP18
0.58	ACOX1
-1.41 (active)	GNA13
-1.04 (active)	TMPRSS5
-1.77 (active)	DAPP1
0.0491	LAMP5
-1.57 (active)	ZNF181
0.823	NAB1
-0.57	EWSR1
0.821	CYSRT1
-2 (active)	IZUMO1R
-0.862	PHYHD1
0.702	LPCAT2
0.932	TEX55
0.704	CLEC12A
-1.22 (active)	PRMT8
-1.48 (active)	TMIGD2
-0.909	CD6
-0.866	SSR1
1.26 (active)	NRDC
-0.562	NUMBL
-1.48 (active)	RAB6B
0.465	ZNF324B
0.832	SCGN
1.67 (active)	RPN2
0.546	MAS1
-0.0717	AGAP4
0.36	CIC
-0.132	OR10A4
-0.767	CST7
-1.17 (active)	LZTFL1
-0.201	NUP160
-1.35 (active)	MTSS1
2.11 (active)	HLA-E
-0.934	GNMT
-1.28 (active)	ADARB2
-0.584	ATAD2
-0.518	ADGRG3
0.175	KRTAP5-4
-1.17 (active)	PTGER3
-1.89 (active)	RPL19
-0.517	BLOC1S6
-0.93	MRPL4
-0.793	FKBP14
-1.41 (active)	DGCR2
-1.27 (active)	MAGIX
-1.31 (active)	STX16
-2.05 (active)	ABITRAM
-0.903	PIANP
-0.377	ROGDI
-1.47 (active)	CP
1.35 (active)	ZCRB1
-0.547	ZNF189
0.511	CAAP1
0.603	PDS5B
2.17 (active)	STX11
-1.26 (active)	NETO2
0.819	STARD8
0.143	MED12L
-1.04 (active)	DPY19L3
2.27 (active)	SEPTIN6
-1.38 (active)	KRT32
1.94 (active)	SNX16
-0.625	ANKS6
-1.09 (active)	PRR5-ARHGAP8
1.39 (active)	LAMTOR1
0.206	NSMCE3
2.54 (active)	RPL38
0.541	PAQR8
1.93 (active)	ZCCHC17
-2.12 (active)	TMEM243
0.013	IFIT1B
-0.591	WFDC8
-1.26 (active)	DCDC2
-1.15 (active)	HACL1
-0.173	FCHSD1
-1.02 (active)	BEST2
0.499	COQ10A
-0.324	DNAJB12
-0.449	ATOH8
-0.904	TRMT112
4.16 (active)	INTS15
-0.952	UPK3BL1
0.565	SYNPO2
-1.46 (active)	APOBEC3B
-2.69 (active)	KLF10
-0.674	LRRN4
0.13	SEBOX
-1.95 (active)	NPAS3
0.0038	TBC1D22B
-0.448	BRINP3
0.708	APCS
-1.48 (active)	CCNT2
0.64	CAPN9
-0.368	OR8K3
1.77 (active)	EVI5
2.36 (active)	NEUROG3
1.53 (active)	CDCA3
1.63 (active)	MYH8
1.37 (active)	NBPF1
0.156	PRDM13
0.24	OTOF
-0.0828	LYSMD1
0.329	KIAA1217

Targets above whose gene name begins with G or g (2):
z-score vs non-targeting control	gene knocked down
-1.41 (active)	GNA13
-0.934	GNMT
